In general, Ki refers to a dissociation constant, usually derived from enzyme kinetics or from competition with a known ligand.

SMILES strings stand for the structures.

The values that follow come from ChEMBL document CHEMBL3994664, “Comparison of the anion inhibition profiles of the β- and γ-carbonic anhydrases from the pathogenic bacterium Burkholderia pseudomallei” (2017).

The target in this assay is Unchecked (Burkholderia pseudomallei K96243, UniProt Q63Y17). Put plainly: Inhibition of Burkholderia pseudomallei recombinant His-tagged carbonic anhydrase beta (256 residues) expressed in Escherichia coli BL21 (DE3) incubated for 15 mins prior to testing by stopped flow CO2 hydration method.
As to `NS(=O)(=O)O`, the inhibitory constant (Ki) worked out at 83 µM.
To `NS(N)(=O)=O` belongs 89 µM; to `O=[As](O)(O)c1ccccc1`, 92 µM.
